Pooled drug test results. Numbers come from NIAID ChemDB, via PubChem.

Shared fields: tests in culture; agent: Poliovirus; read-out: inhibition

Inhibition is in % at the dose shown (toxicity tests: loss of growth or viability).

{"SMILES": "CC(C)=CCC[C@@H](COS(=O)(=O)O)C1CCC2C3CC[C@H]4C[C@H](OS(=O)(=O)O)[C@@H](O)CC4(C)C3CCC21C", "cell line": "VERO", "strain or isolate": "TYPE 3", "dose": "40 µg/mL", "value": "18%"}
{"SMILES": "Brc1ccc(C2=Cc3ccccc3OC2)cc1", "cell line": "HEP-2", "strain or isolate": "II (TYPE 2)", "dose": "10 µM", "value": "0%"}
{"SMILES": "COc1cc(C(=O)Oc2c(-c3ccc(Cl)cc3)oc3ccccc3c2=O)ccc1O", "cell line": "HeLa", "strain or isolate": "TYPE 2", "dose": "6.25 µM", "value": "20%"}
{"SMILES": "Clc1ccc(C2COc3ccc(Cl)cc3C2)cc1", "cell line": "HEP-2", "strain or isolate": "SABIN (TYPE 2)", "dose": "10 µM", "value": "20%"}
{"SMILES": "CC(=O)c1ccc2c(c1)Sc1cc(C(C)=O)ccc1O2", "cell line": "BSC-1", "strain or isolate": "TYPE 3", "dose": "2 µg/mL", "value": "13%"}
{"SMILES": "Clc1ccc2c(c1)CC(c1ccccc1)CO2", "cell line": "HEP-2", "strain or isolate": "TYPE 2", "dose": "10 µM", "value": "30%"}
{"SMILES": "C/C(=N\\O)c1ccc2c(c1)Sc1ccccc1S2", "cell line": "BSC-1", "strain or isolate": "TYPE 3", "dose": "2 µg/mL", "value": "22%"}
{"SMILES": "COc1cc(C(=O)Oc2c(-c3ccc(Cl)c(Cl)c3)oc3ccccc3c2=O)cc(OC)c1OC(C)=O", "cell line": "HeLa", "strain or isolate": "TYPE 2", "dose": "1.29 µM", "value": "inactive"}
{"SMILES": "CCC(=O)C(CCCCCCOc1ccc(OC)cc1Cl)C(=O)CC", "cell line": "HeLa", "strain or isolate": "MEF (TYPE 2)", "dose": "0.14 µM", "value": "69%"}
{"SMILES": "CC(=O)c1cccc(Oc2ccccc2)c1", "cell line": "BSC-1", "strain or isolate": "TYPE 3", "dose": "0.4 µg/mL", "value": "75%"}
{"SMILES": "Cc1nnc2nc3c(nn12)c1ccccc1n3C", "cell line": "BSC-1", "strain or isolate": "TYPE 1", "dose": "60 µg/mL", "value": "14%"}
{"SMILES": "Clc1ccc2c(c1)C=C(c1ccc(Br)cc1)CO2", "cell line": "HEP-2", "strain or isolate": "SABIN (TYPE 2)", "dose": "10 µM", "value": "5%"}
{"SMILES": "COc1cc(C(=O)Oc2c(-c3ccc(Cl)cc3)oc3ccccc3c2=O)ccc1OC(C)=O", "cell line": "HeLa", "strain or isolate": "TYPE 2", "dose": "6.25 µM", "value": "10%"}
{"SMILES": "CC(C)C/C=C/[C@@H](COS(=O)(=O)O)[C@H]1CC[C@H]2[C@@H]3CC[C@@H]4[C@H](O)[C@H](OS(=O)(=O)O)CC[C@]4(C)[C@H]3[C@@H](O)C[C@]12C", "cell line": "VERO", "strain or isolate": "SABIN (TYPE 3)", "dose": "5 µg/mL", "value": "15%"}
{"SMILES": "CC(C)CCCC(COS(=O)(=O)O)C1CCC2C3CC=C4C[C@H](O)[C@@H](OS(=O)(=O)O)CC4(C)C3CCC12C", "cell line": "VERO", "strain or isolate": "TYPE 3", "dose": "40 µg/mL", "value": "20.5%"}
{"SMILES": "CC(N)c1ccc2c(c1)Sc1ccccc1O2", "cell line": "BSC-1", "strain or isolate": "TYPE 3", "dose": "2 µg/mL", "value": "23%"}
{"SMILES": "Clc1ccc(C2=Cc3ccccc3OC2)cc1", "cell line": "HEP-2", "strain or isolate": "TYPE 2", "dose": "10 µM", "value": "0%"}
{"SMILES": "CC(O)c1ccc2c(c1)S(=O)(=O)c1ccccc1O2", "cell line": "BSC-1", "strain or isolate": "TYPE 3", "dose": "0.4 µg/mL", "value": "1%"}
{"SMILES": "CC12CC[C@H](OS(=O)(=O)O)CC1=CCC1C2CCC2(C)C(C(=O)CO)CCC12", "cell line": "VERO", "strain or isolate": "TYPE 3", "dose": "40 µg/mL", "value": "0%"}
{"SMILES": "CCCCCCCCCCCCCCCCCCCCCCO", "cell line": "VERO", "dose": "5 µg/mL", "value": "0%"}
{"SMILES": "CC(O)c1ccc2c(c1)Cc1ccccc1O2", "cell line": "BSC-1", "strain or isolate": "TYPE 3", "dose": "2 µg/mL", "value": "100%"}
{"SMILES": "COc1cc(C(=O)Oc2c(-c3ccc(Cl)cc3)oc3ccccc3c2=O)cc(OC)c1OC(C)=O", "cell line": "HeLa", "strain or isolate": "TYPE 2", "dose": "1.56 µM", "value": "18%"}
{"SMILES": "N=C(N)N", "cell line": "HeLa", "dose": "3000 µM", "value": ">99%"}
{"SMILES": "O=C(Oc1c(-c2ccc(Cl)cc2)oc2ccccc2c1=O)c1cc(O)c(O)c(O)c1", "cell line": "HeLa", "strain or isolate": "TYPE 2", "dose": "25 µM", "value": "28%"}
{"SMILES": "Clc1ccc(C2=Cc3cc(Cl)ccc3OC2)cc1", "cell line": "HEP-2", "strain or isolate": "IA (TYPE 2)", "dose": "10 µM", "value": "55%"}
{"SMILES": "CC(O)c1ccc2c(c1)Sc1ccccc1O2", "cell line": "BSC-1", "strain or isolate": "TYPE 3", "dose": "10 µg/mL", "value": "100%"}

For "inactive" no cut-off is given. Rows are shuffled and stem from different studies.